Assay [1] concerns the target authentic AIV antigen / virus of influenza strain A/Turkey/Wisconsin/68 (H5N9) (influenza A virus A/Turkey/Wisconsin/68 (H5N9)).
The target is the same in assay [2]. The assay is described as follows: cell-based or functional assay.

We go through six molecules from patent US20200123233A1.

B1: IV144 (VHH)
VHH: QVQLQQSGGGLVQAGGSLRLSCAASGNIISFNPMGWHRQAPGKQRELVASITSGGSISYVDSVKGRFTISRDSAKNTIYLQMNSLKPEDTAVYFCAGEGPRRRGSTWYTDTYWGQGTQVTVSS
Molecule B1 yielded an ELISA titer (NANOBODY concentration giving extinction 0.2) in assay [1] of 31.6 ng/mL. In assay [2], this molecule had an HI titer of over 1000 µg/mL and a VNT titer of over 50 µg/mL.

B2: IV154 (VHH)
VHH: QVQLQESGGGLVQAGGSLRLSCAASGRPFSSAAMGWFRQAPGKEREFVSAISYTGDVTRYADSVKGRFTISRDNTRNTLTLEMNSLKPEDTAVYYCAARTYAGVRAHTYDYDYWGQGTQVTVSS
In assay [1], B2 registered an ELISA titer (NANOBODY concentration giving extinction 0.2) of 8.3 ng/mL. In assay [2], this molecule yielded an HI titer of over 1000 µg/mL and a VNT titer of over 50 µg/mL.

B3: IV156 (VHH)
VHH: QVQLQQSGGGLVQPGGSLRLSCAASRSGFSFNPMGWYRQAPGKQRELVATITSGGTTNYADSVKGRFTISTDNAKTTVFLQMNSLKPEDTAVYYCNGRGPRRGTAGWFTDDYWGQGTQVTVSS
For B3, the ELISA titer (NANOBODY concentration giving extinction 0.2) in assay [1] was determined as 14.4 ng/mL. In addition, in assay [2], the HI titer was over 1000 µg/mL and the VNT titer is over 50 µg/mL.

B4: IV157 (VHH)
VHH: QVQLQQSGGGLVQPGGSLRLSCAASRSDISFNPMGWYRQAPGKQRELVATISNGGTTNYADSVKGRFTISQDNAKTTVYLQMNSLKPEDTAVYYCNGRGPRYATTGWYTDDYWGQGTQVTVSS
In assay [1], B4 displayed an ELISA titer (NANOBODY concentration giving extinction 0.2) of 14.5 ng/mL. In addition, in assay [2], the HI titer was over 1000 µg/mL and the VNT titer was over 50 µg/mL.

B5: IV155 (VHH)
VHH: QVQLQESGGGLVQAGGSLRLSCAASGRSLSRYAMGWFRQAPGKEREFVATKTSGGVTYYGASVKGRFTISRDNAKNMVYLQMNSLNPEDTAIYYCAAGTDAIFKPWMLPDYWGQGTQVTVSG
On to B5, for which, in assay [1], the ELISA titer (NANOBODY concentration giving extinction 0.2) was 34.3 ng/mL. In assay [2], this molecule yielded an HI titer of over 1000 µg/mL and a VNT titer of over 50 µg/mL.

B6: IV146 (VHH)
VHH: QVQLQQSGGGLVQAGGSLRLSCAASGSSFSINAMGWYRQAPGKQRELVAAISSGGSANYADSVKGRFTISRDNAKNTVYLQMNSLKPEDTAVYYCNAGSRFNPFGSAYDYWGQGTQVTVSS
In turn, B6 returned an ELISA titer (NANOBODY concentration giving extinction 0.2) in assay [1] of 43 ng/mL. In addition, in assay [2], the HI titer is over 1000 µg/mL and the VNT titer was under 0.75 µg/mL.
